# Laboratory results from paper PMC11545984, “1,3-Dipolar Cycloaddition of Nitrile Oxides and Nitrilimines to (−)-β-Caryophyllene: Stereoselective Synthesis of Polycyclic Derivatives and Their Biological Testing” (International Journal of Molecular Sciences, 2024).
# Test system: influenza virus A/Puerto Rico/8/34 (H1N1)
# Assay: Antiviral (cytoprotective) activity in MDCK cells, MTT
# Type: cell-based
# Details: not given
row,SMILES,SI
1,"NC12CC3CC(CC(C3)C1)C2 [Amantadine, reference compound]",4
2,"CC1(C)C[C@H]2[C@H]1CC[C@]1(C)ON=C(c3ccc(Cl)cc3)[C@H]1CC[C@@]21CC(c2ccc(Cl)cc2)=NO1 [Compound 25, (3aR,6R,6aS,8aR,10aS)-3,3′-Bis(4-chlorophenyl)-8,8,10a-trimethyl-3a,4,5,6a,7,8,8a,9,10,10a-decahydro-4′H-spiro[cyclobuta [5,6]cyclonona [1,2-d]isoxazole-6,5′-isoxazole]]",12

# Same assay, conditions: selectivity index, ratio CC50/IC50
row,SMILES,SI
1,"COc1cccc(OC)c1C1=NN(c2c(Cl)cc(Cl)cc2Cl)[C@]2(CC/C=C(\C)CC[C@@H]3[C@@H]2CC3(C)C)C1 [Compound 23a, (1S,2R,9R,E)-5′-(2,6-Dimethoxyphenyl)-6,10,10-trimethyl-2′-(2,4,6-trichlorophenyl)-2′,4′-dihydrospiro[bicyclo [7.2.0]undecane-2,3′-pyrazol]-5-ene]",<2
2,"CC1=CCCC2(CC(C)=NN2c2ccccc2)C2CC(C)(C)C2CC1 [Compound 21a, (1S,2R,9R,E)-5′,6,10,10-Tetramethyl-2′-phenyl-2′,4′-dihydrospiro[bicyclo [7.2.0]undecane-2,3′-pyrazol]-5-ene]",4
3,"C/C1=C\CC[C@@]2(CC(c3ccc(Cl)cc3)=NO2)[C@H]2CC(C)(C)[C@@H]2CC1 [Compound 16a, (1S,2R,9R,E)-3′-(4-Chlorophenyl)-6,10,10-trimethyl-4′H-spiro[bicyclo [7.2.0]undecane-2,5′-isoxazol]-5-ene]",13
4,"C/C1=C\CC[C@@]2(CC(Br)=NO2)[C@H]2CC(C)(C)[C@@H]2CC1 [Compound 19a, (1S,2R,9R,E)-3′-Bromo-6,10,10-trimethyl-4′H-spiro[bicyclo [7.2.0]undecane-2,5′-isoxazol]-5-ene]",<2
5,"COc1ccc(C2=NO[C@]3(CC/C=C(\C)CC[C@@H]4[C@@H]3CC4(C)C)C2)cc1 [Compound 17a, (1S,2R,9R,E)-3′-(4-Methoxyphenyl)-6,10,10-trimethyl-4′H-spiro[bicyclo [7.2.0]undecane-2,5′-isoxazol]-5-ene]",5
6,"C/C1=C\CC[C@@]2(CC(c3ccccc3)=NN2c2ccccc2)[C@H]2CC(C)(C)[C@@H]2CC1 [Compound 22a, (1S,2R,9R,E)-6,10,10-Trimethyl-2′,5′-diphenyl-2′,4′-dihydrospiro[bicyclo [7.2.0]undecane-2,3′-pyrazol]-5-ene]",2
7,"C=C1CC[C@@H]2C(c3ccc(OC)cc3)=NO[C@@]2(C)CC[C@@H]2[C@@H]1CC2(C)C [Compound 17b, (3aR,6aS,8aR,10aS)-3-(4-methoxyphenyl)-8,8,10a-trimethyl-6-methylene-3a,5,6,6a,7,8,8a,9,10,10a-decahydro-4H-cyclobuta [5,6]cyclonona [1,2-d]isoxazole]",<2
8,"C=C1CC[C@@H]2C(C)=NN(c3ccccc3)[C@@]2(C)CC[C@@H]2[C@@H]1CC2(C)C [Compound 21b, (3aS,6aS,8aR,10aS)-3,8,8,10a-tetramethyl-6-methylene-1-phenyl-1,3a,4,5,6,6a,7,8,8a,9,10,10a-dodecahydrocyclobuta [6,7]cyclonona [1,2-c]pyrazole]",<1
9,"CC(N)C12CC3CC(CC(C3)C1)C2 (stereo not shown) [Rimantadine, reference compound]",5
10,"C=C1CC[C@@H]2C(c3ccc(Cl)cc3)=NO[C@@]2(C)CC[C@@H]2[C@@H]1CC2(C)C [Compound 16b, (3aR,6aS,8aR,10aS)-3-(4-chlorophenyl)-8,8,10a-trimethyl-6-methylene-3a,5,6,6a,7,8,8a,9,10,10a-decahydro-4H-cyclobuta [5,6]cyclonona [1,2-d]isoxazole]",1
11,"CC1=CCCC2(CC(c3cc(Br)ccc3O)=NO2)C2CC(C)(C)C2CC1 [Compound 18a, 4-Bromo-2-((1S,2R,9R,E)-6,10,10-trimethyl-4′H-spiro[bicyclo [7.2.0]undecane-2,5′-isoxazol]-5-en-3′-yl)phenol]",5
12,"CC1(C)C[C@H]2[C@H]1CC[C@]1(C)[C@@H](CC[C@@]23CC(c2ccccc2)=NN3c2ccccc2)C(c2ccccc2)=NN1c1ccccc1 [Compound 29, (3aR,6R,6aS,8aR,10aR)-8,8,10a-trimethyl-1,2′,3,5′-tetraphenyl-2′,3a,4,4′,5,6a,7,8,8a,9,10,10a-Dodecahydro-1H-spiro[cyclobuta [6,7]cyclonona [1,2-c]pyrazole-6,3′-pyrazole]]",>5
13,"COc1cccc(OC)c1C1=NN(c2c(Cl)cc(Cl)cc2Cl)[C@]2(CC[C@H]3C(c4c(OC)cccc4OC)=NN(c4c(Cl)cc(Cl)cc4Cl)[C@]3(C)CC[C@@H]3[C@@H]2CC3(C)C)C1 [Compound 30, (3aR,6R,6aS,8aR,10aR)-3,5′-Bis(2,6-dimethoxyphenyl)-8,8,10a-trimethyl-1,2′-bis(2,4,6-trichlorophenyl)-2′,3a,4,4′,5,6a,7,8,8a,9,10,10a-dodecahydro-1H-spiro[cyclobuta [6,7]cyclonona [1,2-c]pyrazole-6,3′-pyrazole]]",>5
14,"C=C1CC[C@H]2C(c3c(OC)cccc3OC)=NN(c3c(Cl)cc(Cl)cc3Cl)[C@]2(C)CC[C@@H]2[C@@H]1CC2(C)C [Compound 23b, (3aR,6aS,8aR,10aR)-3-(2,6-dimethoxyphenyl)-8,8,10a-trimethyl-6-methylene-1-(2,4,6-trichlorophenyl)-1,3a,4,5,6,6a,7,8,8a,9,10,10a-dodecahydrocyclobuta [6,7]cyclonona [1,2-c]pyrazole]",>3
15,"C=C1CC[C@H]2C(c3ccccc3)=NN(c3ccccc3)[C@]2(C)CC[C@@H]2[C@@H]1CC2(C)C [Compound 22b, (3aR,6aS,8aR,10aR)-8,8,10a-trimethyl-6-methylene-1,3-diphenyl-1,3a,4,5,6,6a,7,8,8a,9,10,10a-dodecahydrocyclobuta [6,7]cyclonona [1,2-c]pyrazole]",<3
16,"CC1(C)C[C@H]2[C@H]1CC[C@@]1(C)ON=C(Br)[C@@H]1CC[C@@]21CC(Br)=NO1 [Compound 28, (3aR,6R,6aS,8aR,10aR)-3,3′-Dibromo-8,8,10a-trimethyl-3a,4,5,6a,7,8,8a,9,10,10a-decahydro-4′H-spiro[cyclobuta [5,6]cyclonona [1,2-d]isoxazole-6,5′-isoxazole]]",<2
17,"C=C1CC[C@H]2C(Br)=NO[C@]2(C)CC[C@@H]2[C@@H]1CC2(C)C [Compound 19b, (3aR,6aS,8aR,10aR)-3-bromo-8,8,10a-trimethyl-6-methylene-3a,5,6,6a,7,8,8a,9,10,10a-decahydro-4H-cyclobuta [5,6]cyclonona [1,2-d]isoxazole]",<1
